Results deposited as PubChem BioAssay AID504761 (Drosophila RNAi Screening Center, 2011).
The screen tested about 22,000 reagents; this is a random part of those with a known target gene and a result. Over the whole deposit, 116 (0.52%) are marked active. 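Calls depend on retest data that are not deposited; infection was ranked per plate without normalising between plates; the unit of the infection score is not given.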 Raw values vary from plate to plate and are shown uncorrected. A number with no mark means an inactive call. The numbers tell different reagents against one gene apart. Names joined by + are all predicted targets of the reagent. Not given: the amount of reagent, the time to read-out.

- Aim: 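Insect host genes that dengue virus relies on to spread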 (primary screen)
- Cell system: D.Mel-2 cells from Drosophila
- Reagents: long dsRNA against Drosophila genes
- Treatment: infection with dengue virus type 2; dose and infection time not stated
- Measurement: 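Cells stained for dengue envelope protein and imaged; percent of infected cells per well on duplicate plates, ranked by infection, with stained nuclei counted for cell number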
- Direction: infection score: higher = more virus-infected cells; cell count: higher = more cells in the well
- Active means: 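Low infection ranks in the two replicates (chance level up to 0.065) followed by a retest with a 1.5-fold or larger significant decrease, p below 0.05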
- Calls: active = confirmed: knock-down lowers infection; inactive = not picked or not confirmed

gene | dsRNA no. | infection score, replicate 1 | infection score, replicate 2 | cell count, replicate 1 | cell count, replicate 2
pav (pavarotti) | 1 | 2.1 | 3.24 | 3573 | 3300
pav (pavarotti) | 2 | 5.9 | 1.67 | 4612 | 4491
dgt5 (dim gamma-tubulin 5) | 1 | 3.72 | 7.76 | 5778 | 5667
dgt5 (dim gamma-tubulin 5) | 2 | 16.3 | 15.8 | 4871 | 4592
CG15522 | 1 | 5.5 | 5.67 | 3037 | 6776
CG15522 | 2 | – | 4.26 | 412 | 1150
lncRNA:CR32690 (long non-coding RNA:CR32690) | 1 | 5.03 | 6.16 | 6764 | 6513
lncRNA:CR32690 (long non-coding RNA:CR32690) | 2 | 24.8 | 16.9 | 6194 | 6346
s-cup (stanley-cup) | 1 | 4.83 | 12.4 | 6811 | 6203
s-cup (stanley-cup) | 2 | 5.19 | 18.1 | 6305 | 6045
s-cup (stanley-cup) | 3 | 3.98 | 3.95 | 6632 | 6397
Pex6 + Hao | 1 | 1.58 | 3.8 | 6583 | 6742
Pex6 + Hao | 2 | 3.35 | 10.6 | 6839 | 6205
ATPsyndelta (ATP synthase, delta subunit) | 1 | 21.1 | 17.6 | 3957 | 4085
Tcs6 + PIG-P | 1 | 0.22 | 0.47 | 6335 | 6154
Tcs6 + PIG-P | 2 | 16.2 | – | 6177 | 248
Ror | 1 | 3.21 | 2.1 | 6483 | 6771
kirre (kin of irre) | 1 | 11.5 | 17.5 | 5521 | 2582
kirre (kin of irre) | 2 | 1.86 | 1.67 | 6006 | 6281
Dip-B (Dipeptidase B) | 1 | 5.56 | 13.6 | 5993 | 6687
Dip-B (Dipeptidase B) | 2 | 2.07 | 1.07 | 6324 | 6832
Ptp4E (Protein tyrosine phosphatase 4E) | 1 | 5.32 | 3.68 | 5849 | 6270
Ccz1 (Caffeine, calcium, zinc sensitivity 1) | 1 | 1.38 | 1.13 | 6689 | 5775
CG14017 | 1 | 1.53 | 3.42 | 5897 | 6979
OSCP1 | 1 | 17 | 5.86 | 6318 | 6932
Lap1 | 1 | 28.9 | 14.8 | 5099 | 6276
eIF3m (eukaryotic translation initiation factor 3 subunit m) | 1 | 5.35 | 11.1 | 3572 | 3353
eIF3m (eukaryotic translation initiation factor 3 subunit m) | 2 | 3.34 | 1.96 | 4195 | 4224
Nadk2 (NAD kinase 2, mitochondrial) | 1 | 7.88 | 6.13 | 6331 | 6481
dtr (defective transmitter release) | 1 | 0.39 | 0.28 | 6846 | 6856
Eip93F (Ecdysone-induced protein 93F) | 1 | 5.6 | 4.82 | 6630 | 6137
Eip93F (Ecdysone-induced protein 93F) | 2 | 10.3 | 2.45 | 6570 | 612
CG1092 | 1 | 15.9 | 20.5 | 3973 | 5951
CG1092 | 2 | 1.24 | 1.37 | 6539 | 6427
CG40378 (retired record) | 1 | 4.33 | 8.88 | 6079 | 5977
Oct-TyrR (Octopamine-Tyramine receptor) | 1 | 4.5 | 3.28 | 6446 | 6703
tey (teyrha-meyrha) | 1 | 22.7 | 7.18 | 5984 | 6033
tey (teyrha-meyrha) | 2 | 2.9 | 5.19 | 6317 | 6783
tey (teyrha-meyrha) | 3 | 8.99 | 4.94 | 5917 | 5853

6 entries already listed, arranged by “infection score, replicate 1”, ascending.
gene | dsRNA no. | infection score, replicate 1 | infection score, replicate 2 | cell count, replicate 1 | cell count, replicate 2
Ccz1 (Caffeine, calcium, zinc sensitivity 1) | 1 | 1.38 | 1.13 | 6689 | 5775
CG14017 | 1 | 1.53 | 3.42 | 5897 | 6979
Ptp4E (Protein tyrosine phosphatase 4E) | 1 | 5.32 | 3.68 | 5849 | 6270
eIF3m (eukaryotic translation initiation factor 3 subunit m) | 1 | 5.35 | 11.1 | 3572 | 3353
OSCP1 | 1 | 17 | 5.86 | 6318 | 6932
Lap1 | 1 | 28.9 | 14.8 | 5099 | 6276
